From article PMC8878324, “Evaluation of New Antimicrobial Agents Based on tris(1H-Indol-3-yl)methylium Salts: Activity, Toxicity, Suppression of Experimental Sepsis in Mice” (Pharmaceuticals, 2022)

What follows are molecules tested on S. aureus 10 (assay: Model of staphylococcal sepsis in mice).
Format: in vivo
Experimental: To determine the ability of drugs to suppress staphylococcal sepsis, a clinical isolate of S. aureus 10, lacking drug resistance and adapted for use in animals, was used. Animals, divided into several experimental groups, were intravenously infected with a lethal dose of S. aureus (0.1 mL each) (Groups 1–5). […] Along with the testing of compounds of the trisndolylmethylium class, a similar experiment was carried out with levofloxacin, taken as a reference drug for a separate group of animals (Group 4). The control group of animals received an intravenous injection of 5% glucose solution instead of the tested preparations (Group 5). Another control group, which also received a single injection of 5% glucose solution, consisted of animals that were not exposed to infection (Group 6). To study each drug, 110–150 animals were required, which were divided into small subgroups of 10 mice each to test various doses of the compounds studied. The number of dead animals and the time of their death were recorded daily, and the appearance of the animals and their weight were assessed. The duration of the experiment was 14 days.
The study was conducted on adult female SHK mice (18–20 g) obtained from the animal breeding unit of the FMBA (Scientific Center for Biomedical Technologies of the Federal Biomedical Agency, Moscow, Russia). The animals were randomly divided into groups (n = 6 for the study of acute toxicity, n = 10 (or 8) to study the efficacy of suppressing staphylococcal sepsis). […]
The experiment used a strain of S. aureus 10, having no drug resistance and adapted for use in animals. […] LD100 dose of staphylococcus detected in the experiment was 8.0 × 10^8 CFU/mouse, which was then used for infecting animals.
The chemotherapeutic efficacy of tris(indolyl)methane derivatives was determined in a model of staphylococcal sepsis in mice. […] The number of dead animals and the time of their death were recorded daily, and the body weight of the animals was recorded three times a week. Their feed intake was monitored, and clinical signs of animal health were assessed daily. […]

Compared with `CCCn1cc([C+](c2cn(CCC)c3ccccc23)c2cn(C3=C(N)C(=O)NC3=O)c3ccccc23)c2ccccc21.[Cl-]` [Compound 2, (1-(4-Amino-2,5-dioxo-2,5-dihydro-1H-pyrrol-3-yl)-1H-indol-3-yl)bis(1-propyl-1H-indol-3-yl) methylium chloride], `CCCn1cc([C+](c2cn(CCC)c3ccccc23)c2cn(C3=C(N(C)C)C(=O)NC3=O)c3ccccc23)c2ccccc21` [Compound 3, 1-(4-Dimethylamino-2,5-dioxo-2,5-dihydro-1H-pyrrol-3-yl) -1H-indol-3-yl) bis(1-propyl-1H-indol-3-yl) methylium chloride] is higher in “TI (therapeutic index, ratio of LD50 to ED50)” value: 2.3 for the first, 22.2 for the second.

With `OCCCCCn1cc([C+](c2cn(CCCCCO)c3ccccc23)c2cn(CCCCCO)c3ccccc23)c2ccccc21.[Cl-]` [Compound 1, tris(1-(5-Hydroxypentyl)-1H-indol-3-yl) methylium chloride] the “TI (therapeutic index, ratio of LD50 to ED50)” value was 3.45.
